A mixed list of measured activities; the numbers were collected in NIAID ChemDB.

Common to all: whole-cell or culture tests; species: HIV-1; read by: syncytia; read-out: inhibition

Inhibition is in % at the dose shown (toxicity tests: loss of growth or viability). Rows are shuffled and stem from different studies. Blank or dashed fields: not listed here.

SMILES	cell line	strain	setting	dose	result
[B-]P(=O)([O-])CC[C@H]1O[C@@H](n2cc(C)c(=O)[nH]c2=O)C[C@@H]1N=[N+]=[N-]	CEM	IIIB		400 µM	0%
Nc1c(S(=O)(=O)O)cc2c3c(cc(S(=O)(=O)O)cc13)C(=O)N(NC(=O)N/N=C/c1cccc(C=O)c1)C2=O	MT-2			40 µM	0%
O=C1CN(c2ccccc2)Cc2nc(Cl)ccc2N1	MT-4	BRU		7.5 µg/mL	100%
C=C(C)C(=O)O.C=CC(=O)OCCCC	H9	IIIB		7.5 µg/mL	95%
COc1ccc(C[C@H]2COC(=O)[C@@H]2Cc2ccc(O[C@@H]3O[C@H](CO)[C@@H](O)[C@H](O)[C@H]3O)c(OC)c2)cc1OC	H9	IIIB		5 µM	93%
CCCCC[C@H](O)/C=C/C1=C(CCCCCCC(=O)O)C(=O)CC1	C8166	IIIB		40 µM	0%
Cc1cn([C@H]2C[C@H](N=[N+]=[N-])[C@@H](CO)O2)c(=O)[nH]c1=O	C8166	IIIB		0.268 µg/mL	56%
NCC(=O)N1CCC[C@H]1C(=O)NCC(=O)N[C@H](C=O)CCCN=C(N)N	H9	IIIB		250 µg/mL	0%
CCCCCCCCCCCCCC(=O)O[C@@H]1[C@@H](C)[C@@]2(O)[C@@H](C=C(CO)C[C@]3(O)C(=O)C(C)=C[C@@H]23)[C@@H]2C(C)(C)[C@]12OC(C)=O	CD4.401(H9-RF) + CD4	RF		0.005 µg/mL	78%
COc1cc(O)c2c(c1)C(=O)c1c(cc3c(c1O)-c1c(cc(C)c(C(=O)N[C@H](C)C(=O)O)c1O)[C@H](O[C@@H]1O[C@H](C)[C@H](O)[C@H](O[C@@H]4OC[C@@H](O)[C@H](O)[C@H]4O)[C@H]1O)[C@H]3O)C2=O	MOLT-4	IIIB		10 µg/mL	100%
O[C@H]1OC[C@H](Cc2ccc3c(c2)OCO3)[C@H]1Cc1ccc2c(c1)OCO2	H9	IIIB		12.7 µM	86%
OC[C@@H]1[C@@H](O)[C@H](O)[C@H]2[C@@H](O)CCN21	JM	GB8		1000 µM	0%
COc1c(CC=C(C)C)c(O)cc2oc(=O)c(-c3ccc(O)cc3O)cc12	MOLT-4/OKM-1(HIV-1) + MOLT-4			20 µg/mL	100%
CC(=O)O[C@H]1C[C@@]2(C)[C@@H](C[C@@H](O)[C@H]3[C@@]4(C)CC[C@@H](O)[C@@H](C)[C@@H]4CC[C@@]32C)/C1=C(\CCC=C(C)C)C(=O)O	C8166	CBL-1		50 µg/mL	100%
COc1cc([C@H]2OC[C@H]3[C@@H]2CO[C@@H]3c2ccc3c(c2)OCO3)cc(OC)c1OC	H9	IIIB		10.6 µM	97%
COc1cc(O)c2c(c1)C(=O)c1c(cc3c(c1O)-c1c(cc(C)c(C(=O)N[C@H](C)C(=O)O)c1O)[C@H](O[C@@H]1O[C@H](C)[C@H](N)[C@H](O[C@@H]4OC[C@@H](O)[C@H](O)[C@@H]4O)[C@H]1O)[C@H]3O)C2=O	MOLT-4	IIIB		3 µg/mL	34%
OC[C@H]1NC[C@H](O)[C@@H](O)[C@@H]1O	U-937	CLB 32		1000 µM	100%
CN=C1CN=C(c2ccc[nH]2)c2cc(Cl)ccc2N1	HT4 + HT4-6C	LAV-1		3.16 µM	95%
COC(=O)[C@@H](C)NC(=O)c1c(C)cc2c(c1O)-c1c(cc3c(c1O)C(=O)c1cc(OC)cc(O)c1C3=O)[C@H](O)[C@H]2O[C@@H]1O[C@H](CO)[C@H](N)[C@H](O)[C@H]1O	MOLT-4	IIIB		30 µg/mL	100%
NC(N)=NCCC[C@H](NC(=O)[C@@H](N)Cc1ccc(O)cc1)C(=O)NCC(=O)N1CCC[C@H]1C(=O)NCC=O	H9	IIIB		25 µg/mL	0%
COc1ccc(OC[C@@H]2CNCC[C@H]2c2ccc(F)cc2)cc1	MOLT-3	IIIB		4 µg/mL	24%
CC(=O)Nc1ccc(/C=C/c2ccc(N=C=S)cc2S(=O)(=O)O)c(S(=O)(=O)O)c1	JM	GB8		100 µg/mL	100%
C=CC1=C(C)C(/C=c2/[nH]/c(=C/c3[nH]c(/C=C4/NC(=O)C(C)=C4C=C)c(C)c3CCC(=O)O)c(CCC(=O)O)c2C)=NC1=O	MOLT-4	LAV		66.7 µg/mL	100%
Nc1nc2c(ncn2[C@H]2CC[C@@H](CO)O2)c(=O)[nH]1	MT-2	IIIB		0.1 µM	37%
O[C@H]1[C@H](O)[C@H](O)CN2CC[C@H](O)[C@H]12	JM	GB8		1000 µM	44%
COc1cc(C[C@@]2(O)C(=O)OC[C@@H]2Cc2ccc(OC)c(OC)c2)ccc1O	H9	IIIB		0.52 µM	23%
NCC(=O)N1CCC[C@H]1C=O	H9	IIIB		25 µg/mL	88%
Cc1cn([C@H]2C[C@H](N=[N+]=[N-])[C@@H](CO)O2)c(=O)[nH]c1=O	HT4 + HT4-6C	LAV-1		0.01 µM	54%
CCN1c2ncccc2-c2nccn2-c2ccc(OC)nc21	C8166		7 d	0.1 µM	100%
S=C1CN(c2ccccc2)Cc2nc(Cl)ccc2N1	MT-4	BRU		2.5 µg/mL	33%
OC[C@@H]1[C@@H](O)[C@H](O)[C@H]2[C@H](O)CCN21	JM	GB8		500 µM	60%
NCC(=O)N1CCC[C@H]1C(=O)NCC(=O)NCC=O	H9	IIIB		250 µg/mL	80%
O=C(O)c1cc(O)c(O)c(O)c1	MOLT-3	IIIB		10 µg/mL	75%
Cc1cn([C@H]2C[C@H](N=[N+]=[N-])[C@@H](CO)O2)c(=O)[nH]c1=O	MT-2	LAV-1		0.3 µM	>99%

A second listing of 3 rows from above:

SMILES | cell line | strain | setting | dose | result
Nc1nc2c(ncn2[C@H]2CC[C@@H](CO)O2)c(=O)[nH]1 | MT-2 | IIIB |  | 0.1 µM | 37%
COc1cc(O)c2c(c1)C(=O)c1c(cc3c(c1O)-c1c(cc(C)c(C(=O)N[C@H](C)C(=O)O)c1O)[C@H](O[C@@H]1O[C@H](C)[C@H](O)[C@H](O[C@@H]4OC[C@@H](O)[C@H](O)[C@H]4O)[C@H]1O)[C@H]3O)C2=O | MOLT-4 | IIIB |  | 10 µg/mL | 100%
O[C@H]1[C@H](O)[C@H](O)CN2CC[C@H](O)[C@H]12 | JM | GB8 |  | 1000 µM | 44%